Values quoted from earlier work in patent US8067231B2 (priority 2005, dated 2011).

The chains behind the UniProt entries cited, without tags or fusion partners. Where a name states a change or a piece, a line headed by the entry shows the natural chain unless it says otherwise.
UniProt P0DPI0: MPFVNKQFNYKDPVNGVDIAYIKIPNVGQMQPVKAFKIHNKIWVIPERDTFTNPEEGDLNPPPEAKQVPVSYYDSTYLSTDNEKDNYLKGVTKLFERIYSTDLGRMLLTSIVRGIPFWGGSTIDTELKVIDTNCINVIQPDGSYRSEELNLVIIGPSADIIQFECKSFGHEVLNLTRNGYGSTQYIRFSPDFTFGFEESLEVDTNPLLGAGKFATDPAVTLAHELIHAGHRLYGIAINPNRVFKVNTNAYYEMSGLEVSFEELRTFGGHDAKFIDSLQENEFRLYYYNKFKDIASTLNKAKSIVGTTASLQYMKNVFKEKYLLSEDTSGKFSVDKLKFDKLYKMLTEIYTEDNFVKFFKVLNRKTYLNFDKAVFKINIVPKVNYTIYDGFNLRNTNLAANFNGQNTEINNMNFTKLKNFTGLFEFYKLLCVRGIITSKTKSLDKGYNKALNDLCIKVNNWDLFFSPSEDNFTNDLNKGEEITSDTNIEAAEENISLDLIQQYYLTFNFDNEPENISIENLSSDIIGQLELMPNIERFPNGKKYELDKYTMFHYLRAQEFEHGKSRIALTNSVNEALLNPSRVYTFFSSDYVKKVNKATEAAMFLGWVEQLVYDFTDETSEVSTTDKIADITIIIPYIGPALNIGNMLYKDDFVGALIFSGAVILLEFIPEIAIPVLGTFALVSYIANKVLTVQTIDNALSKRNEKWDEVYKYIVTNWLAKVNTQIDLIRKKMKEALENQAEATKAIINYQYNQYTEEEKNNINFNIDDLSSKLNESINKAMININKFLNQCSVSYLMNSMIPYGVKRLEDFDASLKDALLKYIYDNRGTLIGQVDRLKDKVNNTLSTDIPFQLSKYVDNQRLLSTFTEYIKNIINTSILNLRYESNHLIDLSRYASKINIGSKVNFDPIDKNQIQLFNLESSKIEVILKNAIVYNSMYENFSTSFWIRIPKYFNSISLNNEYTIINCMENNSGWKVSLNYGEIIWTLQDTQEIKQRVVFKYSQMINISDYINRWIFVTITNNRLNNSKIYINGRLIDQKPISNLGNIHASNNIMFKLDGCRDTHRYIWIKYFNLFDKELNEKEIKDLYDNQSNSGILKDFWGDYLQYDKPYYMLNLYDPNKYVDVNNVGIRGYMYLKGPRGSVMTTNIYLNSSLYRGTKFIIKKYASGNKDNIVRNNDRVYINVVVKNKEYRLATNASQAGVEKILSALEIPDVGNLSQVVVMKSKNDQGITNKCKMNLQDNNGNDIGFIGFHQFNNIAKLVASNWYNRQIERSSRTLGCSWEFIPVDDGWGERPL

Biological target: BoNT/A (Clostridium botulinum, UniProt P0DPI0)
Conditions: Initial hydrolysis rates relative to peptide [1-17] (residues 187 to 203 of human SNAP-25); peptide concentrations 1.0 mM; cited from earlier work

Sequence	Relative Rate
SNKTRIDEAAQRATKML	0.06
SNKTRIDEANQRATK	0.03
